Target: HIV-1 89.6 envelope glycoprotein (Env) trimer expressed on 293T cells, lacking cytoplasmic residues 732 to 876 (HIV-1 isolate 89.6) (UniProt Q73372)
Assay: flow cytometry on 293T cells expressing Env, anti-human Fc secondary antibody

In the case of “eCD4-Ig (fusion 3; CCR5mim1 fused to the carboxyl terminus of CD4-Ig) (Fc fusion)”, the bound protein at saturation, less than CD4-Ig (fraction less bound protein than CD4-Ig) is reported as 0.33.
